Among the data in PMC3526787, “Structures of Lysenin Reveal a Shared Evolutionary Origin for Pore-Forming Proteins And Its Mode of Sphingomyelin Recognition” (Structure(London, England:1993), 2012) are X-ray crystal structure values, retold here.

Chains of the proteins cited; added tags and fusions are not shown. Lines headed by an entry give the natural chain unless they say otherwise; changes in a name come on top.
UniProt O18423: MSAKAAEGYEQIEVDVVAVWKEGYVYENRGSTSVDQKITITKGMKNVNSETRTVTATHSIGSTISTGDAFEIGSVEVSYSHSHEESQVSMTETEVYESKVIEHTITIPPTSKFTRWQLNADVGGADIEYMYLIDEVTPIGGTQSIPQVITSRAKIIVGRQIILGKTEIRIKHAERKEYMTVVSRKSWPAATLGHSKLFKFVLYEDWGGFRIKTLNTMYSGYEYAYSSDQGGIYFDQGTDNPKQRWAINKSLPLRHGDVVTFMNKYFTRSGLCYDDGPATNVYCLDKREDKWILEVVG

The target in the experiment is lysenin (Eisenia fetida, UniProt O18423). The experiment can be described thus: X-ray crystal structure. The note with it: SeMet protein crystals soaked with 50 mM phosphocholine, pH 4.5; site in C-terminal beta-trefoil (K185, S227, Y233, Y282).

As to `C[N+](C)(C)CCOP(=O)([O-])O`, the X-ray crystal structure result is “the protein was found in complex with a phosphocholine molecule (lysenin:POC)”.
